Compound potency records, mixed from different reports. Data source: NIAID ChemDB in PubChem.

All rows: tests in culture; agent: HIV-1; method: RT activity; measure: EC50

An empty or dashed field is not shown.

compound	strain	mutations	cell line	result
C=C(C)[C@@H]1CC[C@]2(NC(=O)C(=O)N(C)C)CC[C@]3(C)[C@H](CC[C@@H]4[C@@]5(C)CC[C@H](OC(=O)CC(C)(C)C(=O)O)C(C)(C)[C@@H]5CC[C@]43C)[C@@H]12	IIIB	-	MT-2	>0.199 µM
COC(=O)[C@H](C)NP(=O)(OC[C@@H]1OC[C@H](n2cc(C)c(=O)[nH]c2=O)O1)Oc1ccc(Br)cc1	LAI	RT-M184V	PBMC	0.15 µM
Cc1cncnc1-c1ccc(SCCN(C)C)cc1	LAV	-	PBMC	31.3 µM
COc1ccnc2[nH]cc(C(=O)C(=O)N3CCN(C(=O)c4ccccc4)C[C@H]3C)c12	NL4-3 (gp120 R350K M475I) Recombinant	GP120-R350K M475I	MT-2	1.028 µM
CCCCCCCCCCCCCCCCOCCCOP(=O)(N[C@H](C(=O)OC)C(C)C)OC[C@@H]1OC[C@H](n2cc(C)c(=O)[nH]c2=O)O1	LAI	RT-M184V	PBMC	2.8 µM
CN(C)CCSc1nc(-c2ccncc2)cs1	LAV	-	PBMC	33.3 µM
Cc1cc(=O)[nH]c(N2C(=O)/C(=C\c3ccc(N(C)C)cc3)N=C2c2ccccc2)n1	-	-	-	49.45 µg/mL
Cc1cn([C@H]2CO[C@@H](COP(=O)(N[C@@H](C)C(=O)OCc3ccccc3)Oc3ccccc3)O2)c(=O)[nH]c1=O	LAI	RT-M184V	PBMC	1.08 µM
C=C(C)[C@@H]1CC[C@]2(NC(=O)NC)CC[C@]3(C)[C@H](CC[C@@H]4[C@@]5(C)CC[C@H](OC(=O)CC(C)(C)C(=O)O)C(C)(C)[C@@H]5CC[C@]43C)[C@@H]12	IIIB	-	MT-2	>0.199 µM
Cc1cc(=O)[nH]c(N2C(=O)/C(=C\c3ccc(Cl)cc3)N=C2c2ccccc2)n1	-	-	-	60.58 µg/mL
Cc1ccc(NC(=O)CN2CCN(Cc3nc(-c4ccc(F)cc4)no3)CC2)cc1	G-3	-	PBMC	12.5 µM
COC(=O)[C@@H](C)NP(=O)(OC[C@@H]1OC[C@H](n2cc(C)c(=O)[nH]c2=O)O1)Oc1ccccc1	LAI	RT-M184V	PBMC	4.5 µM
C[C@H]1CO[C@@H]2Cn3cc(C(=O)NCc4ccc(F)cc4F)c(=O)c(O)c3C(=O)N12	NL4-3	E138K/R263K	CBMC	0.0012 µM
CC1=N/C(=C/c2ccc(Cl)cc2Cl)C(=O)N1c1nc(C)cc(Cl)n1	-	-	-	60.77 µg/mL
Nc1ccn([C@H]2S[C@@H](CO)C=C2F)c(=O)n1	BRU-184V	RT-M184V	PBMC	<125 µM
CN(C)CCSc1ccc(-c2cc(-c3ccc(SCCN(C)C)cc3)ncn2)cc1	LAV	-	PBMC	3.4 µM
CCCCCCCCCCCCCCCCOCCCOP(=O)(N[C@@H](C)C(=O)OC)OC[C@@H]1OC[C@H](n2cc(C)c(=O)[nH]c2=O)O1	LAI	RT-M184V	PBMC	2.7 µM
C=C(C)[C@@H]1CC[C@]2(NC(=O)N3CCOCC3)CC[C@]3(C)[C@H](CC[C@@H]4[C@@]5(C)CC[C@H](OC(=O)CC(C)(C)C(=O)O)C(C)(C)[C@@H]5CC[C@]43C)[C@@H]12	IIIB	-	MT-2	>0.199 µM
c1csc(-c2cc(-c3cccs3)nc(N3CCOCC3)n2)c1	LAV	-	PBMC	48.5 µM
COc1cc(/C=C2/N=C(C)N(c3nc(C)cc(Cl)n3)C2=O)cc(OC)c1OC	-	-	-	67.56 µg/mL
COC(=O)[C@H](C)NP(=O)(OC[C@@H]1OC[C@H](n2cc(C)c(=O)[nH]c2=O)O1)Oc1ccccc1Cl	LAI	RT-M184V	PBMC	0.53 µM
C=C(C)[C@@H]1CC[C@]2(NC(=O)NCc3ccccc3)CC[C@]3(C)[C@H](CC[C@@H]4[C@@]5(C)CC[C@H](OC(=O)CC(C)(C)C(=O)O)C(C)(C)[C@@H]5CC[C@]43C)[C@@H]12	IIIB	-	MT-2	>0.199 µM
CN1CCN(CCSc2nccc(-c3ccc(-c4ccnc(SCCN5CCN(C)CC5)n4)s3)n2)CC1	LAV	-	PBMC	17.5 µM
C/C=C1/N=C(c2ccccc2)N(c2nc(C)cc(=O)[nH]2)C1=O	-	-	-	50.58 µg/mL
CN(C)CCSc1nccc(-c2nccs2)n1	LAV	-	PBMC	>100 µM
C=C(C)[C@@H]1CC[C@]2(NC(=O)N3CCN(C)CC3)CC[C@]3(C)[C@H](CC[C@@H]4[C@@]5(C)CC[C@H](OC(=O)CC(C)(C)C(=O)O)C(C)(C)[C@@H]5CC[C@]43C)[C@@H]12	IIIB	-	MT-2	>0.199 µM
CCN1C[C@H](C)n2c(c(O)c3c(=O)n(Cc4ccc(F)c(Cl)c4)nc(C(=O)NC)c32)C1=O	NL4-3	Wild type	PM1	0.0019 µM
C=C(C)[C@@H]1CC[C@]2(NC(=O)c3ccncc3)CC[C@]3(C)[C@H](CC[C@@H]4[C@@]5(C)CC[C@H](OC(=O)CC(C)(C)C(=O)O)C(C)(C)[C@@H]5CC[C@]43C)[C@@H]12	IIIB	-	MT-2	0.2–0.999 µM
CN(C)CCSc1nc(-c2cccs2)cc(-c2cccs2)n1	LAV	-	PBMC	48.9 µM
COC(=O)[C@H](C)NP(=O)(OC[C@@H]1OC[C@H](n2cc(C)c(=O)[nH]c2=O)O1)Oc1ccc(OC)cc1	LAI	RT-M184V	PBMC	0.56 µM
CC1=N/C(=C/c2ccccc2)C(=O)N1c1nc(C)cc(=O)[nH]1	-	-	-	65.86 µg/mL
COc1ncc(OC)c2c(C(=O)C(=O)N3CCN(C(=O)c4ccccc4)CC3)c[nH]c12	IIIB	-	MT-2	0.16 µM
CN(C)CCSc1nccc(-c2ccc(-c3ccnc(SCCN(C)C)n3)s2)n1	LAV	-	PBMC	1.4 µM
CCCCCCCCCCCCCCCCCCOCCOP(=O)(N[C@@H](C)C(=O)OC)OC[C@@H]1OC[C@H](n2cc(C)c(=O)[nH]c2=O)O1	LAI	RT-M184V	PBMC	4.4 µM

4 of the rows above, restated:

compound	strain	mutations	cell line	result
COC(=O)[C@H](C)NP(=O)(OC[C@@H]1OC[C@H](n2cc(C)c(=O)[nH]c2=O)O1)Oc1ccccc1Cl	LAI	RT-M184V	PBMC	0.53 µM
C[C@H]1CO[C@@H]2Cn3cc(C(=O)NCc4ccc(F)cc4F)c(=O)c(O)c3C(=O)N12	NL4-3	E138K/R263K	CBMC	0.0012 µM
COC(=O)[C@H](C)NP(=O)(OC[C@@H]1OC[C@H](n2cc(C)c(=O)[nH]c2=O)O1)Oc1ccc(Br)cc1	LAI	RT-M184V	PBMC	0.15 µM
CN(C)CCSc1nc(-c2cccs2)cc(-c2cccs2)n1	LAV	-	PBMC	48.9 µM

ECn is the concentration giving n% inhibition of infection, replication or growth. Conditions beyond the fields shown may differ between rows. Two numbers with a dash give a range or band.